Measured values from several laboratories, pooled; numbers as filed in NIAID ChemDB.

Shared fields: whole-cell or culture tests; agent: HIV-1; measure: EC50

Blank or dashed fields: not listed here. ECn is the concentration giving n% inhibition of infection, replication or growth. a–b is a range or a potency band. Rows are shuffled and stem from different studies.

smiles	cell line	strain	method	changes	value
CC(C)C1=C2[C@H]3CC[C@@H]4[C@@]5(C)CC[C@H](OC(=O)[C@H]6C[C@@H](C(=O)O)C6(C)C)C(C)(C)[C@@H]5CC[C@@]4(C)[C@]3(C)CC[C@@]2([C@@H](O)CNC(=O)C(C)(NC(=O)c2ccc(Cl)cc2)C(C)O)CC1=O	MT-2	92HT599	p24 / ELISA		<1 µM
O=C(O)CCCNC(=O)Nc1ccc(F)c2c(C(=O)C(=O)N3CCN(C(=O)c4ccccc4)CC3)c[nH]c12	HeLa		luciferase / reporter gene		<1 µM
CS(=O)c1ccc(-c2nc(-c3ccc(F)cc3)c(-c3ccncc3)[nH]2)cc1	Mono Mac 6	89.6	p24		>1 µM
COc1cnc(-n2cnc(C)n2)c2[nH]cc(C(=O)C(=O)N3CCN(C(=O)c4ccccc4)CC3)c12	PM1	SF162.LS	p24 / ELISA		0.0005 µM
CCC(=O)c1ccc(F)c([C@@H]2C[C@@H]2NC(=O)Nc2ccc(C#N)cn2)c1O	TZM-bl	LAI	β-galactosidase / luminescence	NNRTI-resistant (RT G190S)	0.00009 µM
O=C(O)C(=O)/C=C(\O)c1cc(Cc2cccc(Cl)c2)cn(Cc2ccc(F)c(Cl)c2)c1=O	MAGI				1.2 µM
Cc1ccnc2c1NC(=O)c1cccnc1N2C1CC1	HEK293T	p8.9	luciferase		55.64 nM
Cc1occc1C(=S)Nc1ccc(Cl)c(C(=O)OC(C)C2CC2)c1	CEM + CEM-SS	RF	cytopathic effect / XTT		0.02 µM
COc1cnc(-c2cnccn2)c2[nH]cc(C(=O)C(=O)N3CCC(=C(c4ccccc4)c4nnc(C)o4)CC3)c12	HeLa		luciferase		<1 µM
COc1ccc(N(C)C(=O)[C@H](Cc2ccccc2)NC(=O)NS(=O)(=O)N[C@@H](Cc2ccccc2)c2nc(C)no2)cc1	MT-2	NL4-3	luciferase		3.76 µM
O=C(O)C(=O)/C=C(\O)c1cc(Cc2ccc(F)cc2F)cn(Cc2ccccc2F)c1=O	MAGI				0.5 µM
CC(C)C1=C2[C@H]3CC[C@@H]4[C@@]5(C)CC[C@H](OC(=O)[C@H]6C[C@@H](C(=O)O)C6(C)C)C(C)(C)[C@@H]5CC[C@@]4(C)[C@]3(C)CC[C@@]2([C@@H](O)CNCC(C)(C)NC(=O)c2ccc3nc[nH]c3c2)CC1=O	MT-2	92HT599	p24 / ELISA		<1 µM
C=CCN(C(=O)[C@H](Cc1cc(F)cc(F)c1)NC(=O)c1ccccc1S(=O)(=O)N[C@@H](Cc1cc(F)cc(F)c1)C(=O)N(CC=C)c1ccc(OC)cc1)c1ccc(OC)cc1	MT-2	NL4-3	luciferase		10.14 µM
CC(C)C1=C2[C@H]3CC[C@@H]4[C@@]5(C)CC[C@H](OC(=O)[C@H]6C[C@@H](C(=O)O)C6(C)C)C(C)(C)[C@@H]5CC[C@@]4(C)[C@]3(C)CC[C@@]2([C@@H](O)CNC(=O)C(C)(C)NC(=O)c2ccc(N3CCN(C)CC3)cc2)CC1=O	MT-2	92HT599	p24 / ELISA		<1 µM
C[C@@H]1CN(C(=O)c2ccccc2)CCN1C(=O)C(=O)c1c[nH]c2c(NC(=O)NCCCC(=O)O)cccc12	HeLa		luciferase / reporter gene		<1 µM
Cc1cc(S(N)(=O)=O)ccc1NC(=O)COc1ccc(Cl)cc1C(=O)c1cc(F)cc(C(F)(F)F)c1	HELA MAGI	IIIB	luciferase	RT-V106I	0.0025 µM
[2H]C([2H])(CNC(=O)C[C@@]12CC[C@]3(C)[C@H](CC[C@@H]4[C@@]5(C)CC[C@H](OC(=O)[C@H]6C[C@@H](C(=O)O)C6(C)C)C(C)(C)[C@@H]5CC[C@]43C)C1=C(C(C)C)C(=O)C2)NC(=O)c1ccc(Cl)cc1	MT-2	92HT599	p24 / ELISA		<1 µM
Cc1occc1C(=S)Nc1ccc(Cl)c(C(=O)OCC2CC2)c1	CEM + CEM-SS	NL4-3	cytopathic effect / XTT	RT-V179D	0.5 µM
Cc1nn(C(C)C)c(Sc2cc(Cl)cc(Cl)c2)c1Cc1ccncn1	MT-4 + MT4	HXB2	cytopathic effect / MTT		0.013 µM
COc1ccc(N(C)C(=O)[C@H](Cc2cc(F)cc(F)c2)NC(=O)NS(=O)(=O)N[C@@H](Cc2cc(F)cc(F)c2)C(=O)N(C)c2ccc(OC)nc2)cn1	MT-2	NL4-3	luciferase		0.04 µM
Cc1occc1C(=S)Nc1ccc(Cl)c(/C=N/OC(C)(C)C)c1	CEM + CEM-SS	4xAZT(RT-D67N K70R T215Y K219Q)	cytopathic effect / XTT	RT-D67N K70R T215Y K219Q	0.04 µM
O=C(O)C(=O)/C=C(\O)c1cc(Cc2ccc(F)c(Cl)c2)cn(Cc2ccccc2F)c1=O	MAGI				2.2 µM
C=CCO/N=C/c1cc(NC(=S)c2ccoc2C)ccc1Cl	CEM + CEM-SS	NL4-3	cytopathic effect / XTT	RT-L74V	0.01 µM
Nc1ccn([C@H]2CC[C@@H](CO)O2)c(=O)n1		NL4-3	β-galactosidase	H132Y	0.394 µM
O=C(O)C(=O)/C=C(\O)c1cc(Cc2ccccc2F)cn(Cc2cccc(F)c2)c1=O	MAGI				1.9 µM
Cc1cc(C#N)cc(C(=O)c2cc(Cl)ccc2OCC(=O)Nc2cnc(S(N)(=O)=O)cc2C)c1	HeLa + HELA CD4+	HXB2	β-galactosidase	RT-V108I Y181C	<0.01 µM
CC(C)C1=C2[C@H]3CC[C@@H]4[C@@]5(C)CC[C@H](OC(=O)[C@H]6C[C@@H](C(=O)O)C6(C)C)C(C)(C)[C@@H]5CC[C@@]4(C)[C@]3(C)CC[C@@]2([C@@H](O)CNC(=O)c2ccc(N3CCOCC3)cc2)CC1=O	MT-2	92HT599	p24 / ELISA		<1 µM
CNC(=O)C(O)C(O)C(=O)Nc1cccc2c(C(=O)C(=O)N3CCN(C(=O)c4ccccc4)C[C@H]3C)c[nH]c12	HeLa		luciferase / reporter gene		<1 µM
Nc1nc(=O)n([C@H]2C=C[C@@H](CO)O2)cc1F	PBMC	BRU-184V	PCR		<0.21 µM
Cc1cc(S(N)(=O)=O)ccc1NC(=O)COc1ccc(Cl)cc1C(=O)c1cc(F)cc(C(F)(F)F)c1	HeLa + HELA CD4+	HXB2	β-galactosidase	RT-K101E	<0.01 µM
CN(C(=O)[C@H](Cc1cc(F)cc(F)c1)NC(=O)NS(=O)(=O)N[C@@H](Cc1cc(F)cc(F)c1)C(=O)N(C)c1ccc2sc(=O)n(C)c2c1)c1ccc2sc(=O)n(C)c2c1	MT-2	NL4-3	luciferase		0.27 µM
COc1cnc(-c2cnccn2)c2[nH]cc(C(=O)C(=O)N3CCC(=C(c4ccccc4)c4ccc(F)cc4)CC3)c12	HeLa		luciferase		<1 µM
Cc1cc(C)cc(C(=O)c2cc(Cl)ccc2OCC(=O)Nc2ccc(S(N)(=O)=O)cc2C)c1	HeLa + HELA CD4+	HXB2	β-galactosidase	RT-V106I Y181C	<0.01 µM
Cc1occc1C(=S)Nc1ccc(Cl)c(C(=O)OC(C)C)c1	CEM + CEM-SS	4XAZT/Y181C (RT D67N K70R Y181C T215Y K219Q)	cytopathic effect / XTT	RT-D67N K70R Y181C T215Y K219Q	0.4 µM
C=CCN(C(=O)[C@H](Cc1cc(F)cc(F)c1)NC(=O)c1ccncc1C(=O)N[C@@H](Cc1cc(F)cc(F)c1)C(=O)N(CC=C)c1ccc(OC)cc1)c1ccc(OC)cc1	MT-2	NL4-3	luciferase		3.92 µM
COc1cnc(-c2cnccn2)c2[nH]cc(C(=O)C(=O)N3CCC(=C(c4ccccc4)c4nccs4)CC3)c12	HeLa		luciferase		<1 µM
CC=CCOc1cc(NC(=S)c2ccoc2C)ccc1OC	CEM + CEM-SS	NL4-3	cytopathic effect / XTT	RT-L100I	0.6 µM
Cc1cc(OCCCS(N)(=O)=O)ccc1NC(=O)COc1ccc(Cl)cc1C(=O)c1cc(F)cc(C(F)(F)F)c1	HeLa + HELA CD4+	HXB2	β-galactosidase	RT-V106I Y181C	0.011–0.1 µM
CC(C)C1=C2[C@H]3CC[C@@H]4[C@@]5(C)CC[C@H](OC(=O)[C@H]6C[C@@H](C(=O)O)C6(C)C)C(C)(C)[C@@H]5CC[C@@]4(C)[C@]3(C)CC[C@@]2([C@@H](O)CNC(C)(C)c2ccccc2)CC1=O	MT-2	92HT599	p24 / ELISA		<1 µM
Cc1cc(S(N)(=O)=O)ccc1NC(=O)COc1ccc(Cl)cc1C(=O)c1cccc(C#N)n1	HeLa + HELA CD4+	HXB2	β-galactosidase	RT-K103N V108I	<0.01 µM
[2H]C(CCCCN)(CNC(=O)C[C@@]12CC[C@]3(C)[C@H](CC[C@@H]4[C@@]5(C)CC[C@H](OC(=O)[C@H]6C[C@@H](C(=O)O)C6(C)C)C(C)(C)[C@@H]5CC[C@]43C)C1=C(C(C)C)C(=O)C2)NC(=O)c1ccc(Cl)cc1	MT-2	92HT599	p24 / ELISA		<1 µM
Cc1c(OCC2CCC2)c2cc(F)ccc2[nH]c1=O	HeLa + HeLa-MAGI	NNRTI-resistant (RT K103N V108I)	β-galactosidase	RT-K103N V108I	>2 µM
Cc1cc(S(N)(=O)=O)ccc1NC(=O)COc1ccc(Cl)cc1C(=O)c1cccc(C#N)c1	HeLa + HELA CD4+	HXB2	β-galactosidase	RT-P236L	0.011–0.1 µM
COc1ncc(OC)c2c(C(=O)C(=O)N3CCC(=C(C#N)c4ccccn4)CC3)c[nH]c12	HeLa		luciferase		<1 µM
CC(C)c1c(OC#CC2CC2)c2cc(Cl)ccc2[nH]c1=O	HeLa + HeLa-MAGI	NNRTI-resistant (RT K103N Y181C)	β-galactosidase	RT-K103N Y181C	0.62 µM
C=C(C)[C@@H]1CC[C@]2(C(=O)NCCCCCCCC(=O)N[C@@H](CC(C)C)[C@@H](O)CC(=O)O)CC[C@]3(C)[C@H](CC[C@@H]4[C@@]5(C)CC[C@H](O)C(C)(C)[C@@H]5CC[C@]43C)[C@@H]12	HeLa P4 + HeLa	LAI	syncytia	GP41-E109D A109D	<10 µM
COc1ncc(OC)c2c(C(=O)C(=O)N3CCC(=C(c4ccccc4)c4nnc(C)o4)CC3)c[nH]c12	HeLa		luciferase		<1 µM
CC(C)C1=C2[C@H]3CC[C@@H]4[C@@]5(C)CC[C@H](OC(=O)[C@H]6C[C@@H](C(=O)O)C6(C)C)C(C)(C)[C@@H]5CC[C@@]4(C)[C@]3(C)CC[C@@]2(CC(=O)NCC(C)(C)NC(=O)c2ccc(Cl)cc2OCCN2CCOCC2)CC1=O	MT-2	92HT599	p24 / ELISA		<1 µM
COc1cc2[nH]c3ccccc3c2cc1C=O	1A2		syncytia		12 µM
CC(C)COC(=O)Nc1cccc2c(C(=O)C(=O)N3CCN(C(=O)c4ccccc4)CC3)c[nH]c12	HeLa		luciferase / reporter gene		<1 µM
O=C(O)C(=O)/C=C(\O)c1cc(Cc2cccc(Cl)c2F)cn(Cc2cccc(Cl)c2)c1=O	MAGI				1.5 µM
COc1cnc(-n2cnc(C)n2)c2[nH]cc(C(=O)C(=O)N3CCC(=C(c4ccccc4)c4nnc(C5CCC5)o4)CC3)c12	HeLa		luciferase		<1 µM
CC(C)C1=C2[C@H]3CC[C@@H]4[C@@]5(C)CC[C@H](OC(=O)[C@H]6C[C@@H](C(=O)O)C6(C)C)C(C)(C)[C@@H]5CC[C@@]4(C)[C@]3(C)CC[C@@]2(CC(=O)NCC(C)(C)NC(=O)CN(C)C)CC1=O	MT-2	92HT599	p24 / ELISA		<1 µM
C[C@@H]1CN(C(=O)c2ccccc2)CCN1C(=O)C(=O)c1c[nH]c2c(NC(=O)NCCCCCCNC(=O)Nc3cccc(B(O)O)c3)cccc12	HeLa		luciferase / reporter gene		<1 µM
COc1ccc2c(c1)[nH]c1cc(OC)c(C=O)cc12	1A2		syncytia		29.1 µM
Cc1cc(S(N)(=O)=O)ccc1NC(=O)COc1ccc(Cl)cc1C(=O)c1cc(F)cc(F)c1	HeLa + HELA CD4+	WTRVA	β-galactosidase		<0.01 µM
N#CC(=C1CCN(C(=O)C(=O)c2c[nH]c3c(NC(=O)NCCC(=O)O)cccc23)CC1)c1ccccc1	HeLa		luciferase / reporter gene		<1 µM